Reference: ChEMBL document CHEMBL1134815, “3,3a-Dihydropyrano[4,3,2-de]quinazolin-2(1H)-ones are potent non-nucleoside reverse transcriptase inhibitors” (Bioorg Med Chem Lett, 2001)

Test system: HIV-1 reverse transcriptase (Human immunodeficiency virus 1)
Test: Inhibitory concentration against wild-type virus K103N/[…] and HIV-1 RT double mutant in whole cell antiviral assay

COc1c(Cl)ccc2c1C(C#CC1CC1)(C(F)(F)F)NC(=O)N2 (configuration not stated)
IC90: 0.377 µM

O=C1Nc2ccc(Cl)c3c2C(C(F)(F)F)(C=C(C2CC2)O3)N1 (configuration not stated)
IC90: 15 µM
